B1: bLf: Lactoferrin from bovine milk, purchased from Morinaga Milk Industries, deprived of endotoxin (protein, UniProt P24627 20-708, looked up)
Lactotransferrin: APRKNVRWCTISQPEWFKCRRWQWRMKKLGAPSITCVRRAFALECIRAIAEKKADAVTLDGGMVFEAGRDPYKLRPVAAEIYGTKESPQTHYYAVAVVKKGSNFQLDQLQGRKSCHTGLGRSAGWIIPMGILRPYLSWTESLEPLQGAVAKFFSASCVPCIDRQAYPNLCQLCKGEGENQCACSSREPYFGYSGAFKCLQDGAGDVAFVKETTVFENLPEKADRDQYELLCLNNSRAPVDAFKECHLAQVPSHAVVARSVDGKEDLIWKLLSKAQEKFGKNKSRSFQLFGSPPGQRDLLFKDSALGFLRIPSKVDSALYLGSRYLTTLKNLRETAEEVKARYTRVVWCAVGPEEQKKCQQWSQQSGQNVTCATASTTDDCIVLVLKGEADALNLDGGYIYTAGKCGLVPVLAENRKSSKHSSLDCVLRPTEGYLAVAVVKKANEGLTWNSLKDKKSCHTAVDRTAGWNIPMGLIVNQTGSCAFDEFFSQSCAPGADPKSRLCALCAGDDQGLDKCVPNSKEKYYGYTGAFRCLAEDVGDVAFVKNDTVWENTNGESTADWAKNLNREDFRLLCLDGTRKPVTEAQSCHLAVAPNHAVVSRSDRAAHVKQVLLHQQALFGKNGKNCPDKFCLFKSETKNLLFNDNTECLAKLGGRPTYEEYLGTEYVTAIANLKKCSTSPLLEACAFLTR
B2: C-lobe: bovine lactoferrin C-lobe as named in the text, without saying which of the two fragments of Table 2 (protein)
chain: YTRVVWCAVGPEEQKKCQQWSQQSGQNVTCATASTTDDCIVLVLKGEADALNLDGGYIYTAGKCGLVPVLAENRKSSKHSSLDCVLRPTEGYLAVAVVKKANEGLTWNSLKDKKSCHTAVDRTAGWNIPMGLIVNQTGSCAFDEFFSQSCAPGADPKSRLCALCAGDDQGLDKCVPNSKEKYYGYTGAFRCLAEDVGDVAFVKNDTVWENTNGESTADWAKNLNREDFRLLCLDGTRKPVTEAQSCHLAVAPNHAVVSRSDRAAHVKQVLLHQQALFGKNGKNCPDKFCLFKSETKNLLFNDNTECLAKLGGRPTYEEYLGTEYVTAIANLKKCSTSPLLEACAFLTR
modifications: bovine lactoferrin C-lobe peptide

System: Influenza A/H1N1 (A/Roma-ISS/2/08 and A/Parma/24/09) and A/H3N2 (A/Parma/05/06)
Format: cell-based, Influenza A virus

Molecule	SI (selectivity index) = CC50/EC50	SI relative to bLf
B1	about 10^6	
B2		2.5-5 fold
